Results as given in patent US20140017336A1, “CO-ADMINISTRATION OF ARSENIC COMPOUNDS AND ANTI-HERPES VIRUS ANTI-VIRALS” (priority 2011, published 2014).

Experiments:
EBV BMRF1 mRNA = assay type: cell-based, Epstein-Barr virus; settings: 10 nM ATO and/or 40 μM GCV
EBV Zta mRNA = assay type: cell-based, Epstein-Barr virus; settings: 10 nM ATO and/or 40 μM GCV

arsenic trioxide [ATO]
BMRF1 mRNA expression over 7 days (EBV BMRF1 mRNA): increased levels of BMRF1 mRNA after ATO treatment lagged behind Zta expression | Zta mRNA expression over 7 days (EBV Zta mRNA): increased Zta mRNA expression as early as day 3
